Measured values from several laboratories, pooled; numbers as filed in NIAID ChemDB.

All rows: growth or infection tests; agent: HIV-1; read-out: fold resistance

Conditions beyond the fields shown may differ between rows. Blank or dashed fields: not listed here. Fold resistance has wild type as its base.

structure	cells	changes	strain or isolate	setting	result
COC(=O)N[C@H](C(=O)N[C@@H](Cc1ccccc1)[C@@H](O)CN(Cc1ccc(-c2ccccn2)cc1)NC(=O)[C@@H](NC(=O)OC)C(C)(C)C)C(C)(C)C	MT-4	A28S L33F V82I GRL04810-resistant	NL4-3		81
O=C1O[C@H]2[C@@H]3OC(=O)c4cc(O)c(O)c(O)c4-c4c(cc(O)c(O)c4O)C(=O)OC[C@H]2O[C@@H](OC(=O)c2cc(O)c(O)c(O)c2)[C@@H]3OC(=O)c2cc(O)c(O)c3c2[C@@H]2C1=CC(=O)[C@](O)(O3)C2(O)O	MAGI	RT-G190A	NNRTI-resistant (RT G190A) ARP1014		1.49
CC(C)(C)C(=O)c1sc(C(=O)NCCc2ccccc2)c(O)c1O		INTG-T66I N155S			17
Nc1ccn([C@H]2CC[C@@H](CO)O2)c(=O)n1	MT-4	ddI-resistant	Clinical isolate	clinical isolate	1.125
Cc1cccc(C)c1OCC(=O)N[C@@H](Cc1ccccc1)[C@@H](O)C[C@H](Cc1ccccc1)NC(=O)[C@H](C(C)C)N1CCCNC1=O		RT-L100I K103N			4294
CC(=O)Oc1ccc(/C=C/C(=O)O[C@H](C(=O)O)[C@H](OC(=O)/C=C/c2ccc(OC(C)=O)c(OC(C)=O)c2)C(=O)O)cc1OC(C)=O	MT-4	AR117-resistant	NL4-3		>11.9
Cc1ccnc2c1NC(=O)c1cccnc1N2C1CC1	PBMC	RT-A98G Y181C	BCF03		410
Nc1ccn([C@H]2CC[C@@H](CO)O2)c(=O)n1	HT4 + HT4 LacZ-1	RT-D67N K70R T215F K219Q	RTMC (RT D67N K70R T215F K219Q)		1.71
CC(C)(C)C(=O)c1sc(C(=O)NCc2ccccc2)c(O)c1O		INTG-T66I S153Y			1
CC(C)CN(C[C@@H](O)[C@H](Cc1ccccc1)NC(=O)O[C@H]1CCOC1)S(=O)(=O)c1ccc(N)cc1	MT-4	A28S L33F V82I GRL04810-resistant	NL4-3		>13
CCc1cc([C@](C#CC2CC2)(OCc2ccccc2)C(F)(F)F)c(=O)[nH]c1C		RT-K103N P225H			6.15
CC(C)=CCN1Cc2cc(Cl)cc3[nH]c(=S)n(c23)C[C@@H]1C	PBMC	RT-A98G Y181C	BCF08		>312.5
Cc1cn([C@H]2C[C@H](N=[N+]=[N-])[C@@H](CO)O2)c(=O)[nH]c1=O		INTG-N155S			1
O=c1[nH]cnc2c1ncn2[C@H]1CC[C@@H](CO)O1		RT-L74V	DXG 9X(RT-L74V)		>2
CC(C)CN(C[C@@H](O)[C@H](Cc1ccccc1)NC(=O)[C@H](CC(N)=O)NC(=O)c1ccc2ccccc2n1)C(=O)NC(C)(C)C	MT-2	PR-G48V A71T V82A	RF		25.2
Nc1nc(=O)n([C@@H]2CC[C@H](CO)O2)cc1F	HT4 + HT4 LacZ-1	RT-L74V	74V (RT-L74V)		2
Nc1nc2c(ncn2[C@H]2CO[C@@H](CO)O2)c(=O)[nH]1		RT-L74V			4.2
CC(C)=CCN1c2cc(Cl)cc3[nH]c(=S)n(c23)C[C@@H]1C	MT-4	RT-D67N K70R T215Y K219Q Y181C			>30
O=C(O)P(=O)(O)O	MT-2	TAM2 (D67N K70R T215F K219Q)	HXB2		0.6
Nc1ccn([C@H]2CC[C@@H](CO)O2)c(=O)n1	PBMC	RT-A98G K103R Y181C	BCF01		0.133
CC(C)CN(C[C@@H](O)[C@H](Cc1ccccc1)NC(=O)O[C@H]1CO[C@H]2OCC(F)(F)[C@H]21)S(=O)(=O)c1ccc(N)cc1	MT-4	L10F M46I I54V V82A LPV resistant	NL4-3		8
Nc1nc2c(ncn2[C@H]2CO[C@@H](CO)O2)c(=O)[nH]1		RT-V106A G190A			~0.25

Repeating the first 3 entries:

structure,cells,changes,strain or isolate,setting,result
COC(=O)N[C@H](C(=O)N[C@@H](Cc1ccccc1)[C@@H](O)CN(Cc1ccc(-c2ccccn2)cc1)NC(=O)[C@@H](NC(=O)OC)C(C)(C)C)C(C)(C)C,MT-4,A28S L33F V82I GRL04810-resistant,NL4-3,,81
O=C1O[C@H]2[C@@H]3OC(=O)c4cc(O)c(O)c(O)c4-c4c(cc(O)c(O)c4O)C(=O)OC[C@H]2O[C@@H](OC(=O)c2cc(O)c(O)c(O)c2)[C@@H]3OC(=O)c2cc(O)c(O)c3c2[C@@H]2C1=CC(=O)[C@](O)(O3)C2(O)O,MAGI,RT-G190A,NNRTI-resistant (RT G190A) ARP1014,,1.49
CC(C)(C)C(=O)c1sc(C(=O)NCCc2ccccc2)c(O)c1O,,INTG-T66I N155S,,,17